Measurements taken from article PMC8012719 (Frontiers in Pharmacology, 2021).

The chains behind the UniProt entries cited, without tags or fusion partners. Residues count along the entry.
UniProt O92284, 20-524 limits assumed: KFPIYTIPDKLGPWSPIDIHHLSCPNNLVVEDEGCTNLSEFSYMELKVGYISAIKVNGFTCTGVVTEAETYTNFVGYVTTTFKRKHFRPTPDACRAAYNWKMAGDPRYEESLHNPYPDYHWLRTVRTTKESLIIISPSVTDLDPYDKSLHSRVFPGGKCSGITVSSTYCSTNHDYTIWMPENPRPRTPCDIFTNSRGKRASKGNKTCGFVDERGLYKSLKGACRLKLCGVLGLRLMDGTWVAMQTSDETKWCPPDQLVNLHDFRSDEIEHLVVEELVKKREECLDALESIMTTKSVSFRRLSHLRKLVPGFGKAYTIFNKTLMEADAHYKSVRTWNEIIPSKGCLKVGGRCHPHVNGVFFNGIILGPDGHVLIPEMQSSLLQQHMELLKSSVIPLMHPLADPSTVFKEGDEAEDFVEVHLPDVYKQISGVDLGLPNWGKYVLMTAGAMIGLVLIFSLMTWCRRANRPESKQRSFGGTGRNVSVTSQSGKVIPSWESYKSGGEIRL

How the values were obtained:
[1] = system: pRABV (pseudovirus enveloped by the RABV glycoprotein G); format: cell-based, rabies virus
[2] = system: pVSV (pseudovirus expressing a vesicular stomatitis virus envelope glycoprotein); format: cell-based
CVS glycoprotein G = CVS glycoprotein G (Rabies virus, UniProt O92284); format: cell-based; conditions: pH 5
RABV CVS strain = format: cell-based, rabies virus

Compound: CC(C)/N=c1\cc2n(-c3ccc(Cl)cc3)c3ccccc3nc-2cc1Nc1ccc(Cl)cc1 [Clofazimine]
- SI pRABV [1]: >120
- EC50pVSV/EC50pRABV [2]: 6.3
- syncytium formation (G-mediated membrane fusion) (CVS glycoprotein G): significantly inhibited syncytium formation
- SI (RABV CVS strain): over 967
